# In publication PMC6151383 (Molecules : A Journal of Synthetic Chemistry and Natural …, 2017):
# Assays:
# [1] = tested on: M. kansasii; test: M. kansasii, both strains taken together (SI and text ranges); assay type: cell-based, Mycobacterium kansasii; conditions: SI = IC50 (HepG2)/MIC, both strains of M. kansasii
# [2] = tested on: Mycobacterium tuberculosis 331/88 (H37Rv); test: In vitro antimycobacterial MIC, M. tuberculosis; assay type: cell-based; conditions: SI = IC50 (HepG2)/MIC
# [3] = tested on: Candida sp.; test: Selectivity index for Candida sp. (IC50 HepG2/MIC); assay type: cell-based; conditions: all Candida species
# [4] = tested on: Trichophyton interdigitale 445; test: Antifungal microdilution broth MIC, T. interdigitale; assay type: cell-based; conditions: SI = IC50 (HepG2)/MIC
Compound,SI for M. kansasii [1],SI for Mtb. [2],SI for Candida sp. [3],SI for TI [4]
"Nc1ccc(S(=O)(=O)Nc2ncccn2)cc1 [SDZ 1, sulfadiazine, reference compound]",>46.88,>24,–,–
"O=S(=O)(Nc1ncccn1)c1ccc(N=Cc2cccc(Cl)c2O)cc1 [Compound 2l, 4-[(3-Chloro-2-hydroxybenzylidene)amino]-N-(pyrimidin-2-yl)benzenesulfonamide]",2.57–10.03,2.57–5.14,0.64–2.57,5.14
"O=S(=O)(Nc1ncccn1)c1ccc(N=Cc2cc(Cl)cc(Cl)c2O)cc1 [Compound 2m, 4-[(3,5-Dichloro-2-hydroxybenzylidene)amino]-N-(pyrimidin-2-yl)benzenesulfonamide]",0.23–1.83,0.91,0.91–3.66,0.91
"O=S(=O)(Nc1ncccn1)c1ccc(N=Cc2cc(I)cc(I)c2O)cc1 [Compound 2p, 4-[(2-Hydroxy-3,5-diiodobenzylidene)amino]-N-(pyrimidin-2-yl)benzenesulfonamide]",0.15–0.61,0.15,4.87–9.73,2.43
"O=[N+]([O-])c1ccc(O)c(C=Nc2ccc(S(=O)(=O)Nc3ncccn3)cc2)c1 [Compound 2f, 4-[(2-Hydroxy-5-nitrobenzylidene)amino]-N-(pyrimidin-2-yl)benzenesulfonamide]",0.28–1.12,0.56,≤0.56,2.25
"CC(C)(C)c1ccc(O)c(C=Nc2ccc(S(=O)(=O)Nc3ncccn3)cc2)c1 [Compound 2j, 4-{[5-(Tert-butyl)-2-hydroxybenzylidene]amino}-N-(pyrimidin-2-yl)benzenesulfonamide]",0.73–2.85,0.73–1.46,–,0.73
"O=S(=O)(Nc1ncccn1)c1ccc(N=Cc2cc(Cl)cc(I)c2O)cc1 [Compound 2o, 4-[(5-Chloro-2-hydroxy-3-iodobenzylidene)amino]-N-(pyrimidin-2-yl)benzenesulfonamide]",0.24–0.95,0.47,7.58,30.37
"O=S(=O)(Nc1ncccn1)c1ccc(N=Cc2cc(I)ccc2O)cc1 [Compound 2e, 4-[(2-Hydroxy-5-iodobenzylidene)amino]-N-(pyrimidin-2-yl)benzenesulfonamide]",1.25–4.88,1.25–2.50,1.25–2.50,4.99
"O=S(=O)(Nc1ncccn1)c1ccc(N=Cc2cc(O)ccc2O)cc1 [Compound 2i, 4-[(2,5-Dihydroxybenzylidene)amino]-N-(pyrimidin-2-yl)benzenesulfonamide]",>4,>4,> 16,> 256.41
"Cc1ccc(O)c(C=Nc2ccc(S(=O)(=O)Nc3ncccn3)cc2)c1 [Compound 2g, 4-[(2-Hydroxy-5-methylbenzylidene)amino]-N-(pyrimidin-2-yl)benzenesulfonamide]",2.28–9.11,4.56,–,–
"O=[N+]([O-])c1ccc(C=Nc2ccc(S(=O)(=O)Nc3ncccn3)cc2)o1 [Compound 2q, 4-{[(5-Nitrofuran-2-yl)methylene]amino}-N-(pyrimidin-2-yl)benzenesulfonamide]",0.07–0.26,0.13,0.07,0.07
"O=S(=O)(Nc1ncccn1)c1ccc(N=Cc2cc(Br)ccc2O)cc1 [Compound 2d, 4-[(5-Bromo-2-hydroxybenzylidene)amino]-N-(pyrimidin-2-yl)benzenesulfonamide]",2.55–4.97,4.98–9.94,0.64–2.55,2.55
"O=S(=O)(Nc1ncccn1)c1ccc(N=Cc2cc(Cl)cc(Br)c2O)cc1 [Compound 2n, 4-[(3-Bromo-5-chloro-2-hydroxybenzylidene)amino]-N-(pyrimidin-2-yl)benzenesulfonamide]",0.37–1.49,0.74,1.49–2.97,1.49
"COc1ccc(O)c(C=Nc2ccc(S(=O)(=O)Nc3ncccn3)cc2)c1 [Compound 2h, 4-[(2-Hydroxy-5-methoxybenzylidene)amino]-N-(pyrimidin-2-yl)benzenesulfonamide]",5.62–21.94,–,≤0.70,5.62
"O=S(=O)(Nc1ncccn1)c1ccc(N=Cc2cc(F)ccc2O)cc1 [Compound 2b, 4-[(5-Fluoro-2-hydroxybenzylidene)amino]-N-(pyrimidin-2-yl)benzenesulfonamide]",>1,>2,–,–
"O=S(=O)(Nc1ncccn1)c1ccc(N=Cc2ccccc2O)cc1 [Compound 2a, 4-[(2-Hydroxybenzylidene)amino]-N-(pyrimidin-2-yl)benzenesulfonamide]",> 15.63,> 15.63,–,>4
"O=S(=O)(Nc1ncccn1)c1ccc(N=Cc2c(O)cccc2Cl)cc1 [Compound 2k, 4-[(2-Chloro-6-hydroxybenzylidene)amino]-N-(pyrimidin-2-yl)benzenesulfonamide]",0.41–1.64,0.82,–,–
